Anti-infective test results gathered from many reports (values: NIAID ChemDB through PubChem).

All rows: tests in culture; species: Mycobacterium tuberculosis

Two numbers with a dash give a range or band.

structure	method	strain	tested at	changes	measure	result
CCn1cc(C(=O)O)c(=O)c2cc(F)c(N3CCN(C)CC3)cc21	-	55 isolates (RMP INH-R)	-	-	MIC50	8 µg/mL
Cc1ccn2c(C(=O)NCc3ccc(NCCOCCNC(=O)OC(C)(C)C)c(F)c3)c(C)nc2c1	resazurin	H37Rv	-	-	MIC90	2–10 µM
C1CCNC1.S=C(S)N1CCCC1	-	EMB-R	-	-	MIC	0.4 µg/mL
NNC(=O)c1ccncc1	resazurin	XDR	-	-	MIC	>100 µg/mL
COc1ccc(C2CC(=O)c3ccc(F)cc3O2)cc1	-	-	12.5 µg/mL	-	inhibition	0%
CC(=O)Oc1ccccc1C(=O)Nc1ncc([N+](=O)[O-])s1	visual reading	LAM spoligotype 42	-	-	MIC	12 µg/mL
Cc1cc(C)c(-c2cc(C(O)C3OC4OC(C)(C)OC4C3O)on2)c(C)c1	resazurin	H37Rv	-	-	MIC bound	>6.25 µg/mL
COc1ccccc1/C=N/N=c1\scc(-c2cc3cc(Br)ccc3oc2=O)n1C1CCCCC1	-	H37Rv	6.25 µg/mL	-	inhibition	3%
COC(=O)c1cc(C2CCCC2)c2c(C3CCCC3)cccc2n1	-	H37Rv	-	-	MIC	1 µg/mL
Cc1ccc(/C=N/N=c2/scc(-c3cc4ccccc4oc3=O)n2C2CCCCC2)cc1	-	H37Rv	6.25 µg/mL	-	inhibition	0%
CCCc1ncc(C(N)=S)nc1SC	-	H37Rv	-	-	MIC	>12.5 µg/mL
COc1ccc(/C(N=Nc2ccccc2)=N/N=C(N)N)cc1	BACTEC	H37Rv	-	-	MIC bound	>12.5 µg/mL
CCCCSc1nc(C(N)=S)cnc1C(C)(C)C	-	H37Rv	12.5 µg/mL	-	inhibition	<90%
CC1CCCCN1c1cncc(C(=O)NN)n1	-	SP 607	-	-	MIC	500 µg/mL
Cc1cn2c(C(=O)NCc3ccc(N4CCN(c5ccc(S(F)(F)(F)(F)F)cc5)CC4)c(F)c3)c(C)nc2s1	resazurin	H37Rv	-	-	MIC90	<2 µM
CC1=NN(C(=O)c2ccncc2)C(O)(C(F)(F)F)C1	-	RGH101	-	-	MIC	22.89 µM
Cc1nc2ccc(Cl)cn2c1C(=O)NCc1ccc2c(c1)CCO2	resazurin	H37Rv	-	-	MIC90	<2 µM
O=C(c1ccncc1)N1N=C(c2ccccc2)CC1(O)C(F)(F)F	-	H37Rv	-	-	MIC	18.66 µM
O=c1c2ccccc2nc2ccc(Cl)nn12	resazurin	H37Rv	6.25 µg/mL	-	inhibition	29%
O=c1oc2ccccc2cc1-c1cs/c(=N/N=C/c2ccc(Cl)c(Cl)c2)n1C1CCCCC1	-	H37Rv	6.25 µg/mL	-	inhibition	42%
O=C1OC(=O)c2c1nc1ccccc1c2-c1ccccc1	BACTEC	H37Rv	-	-	MIC bound	>12.5 µg/mL
COc1ccc(/C=N/n2c(C)nc3scc(-c4ccco4)c3c2=O)cc1	-	CNCTC MY331/88	-	-	MIC	14 µM
CCCCn1c(Cc2ccccc2)nc2c1C(=O)c1ccccc1C2=O	resazurin	H37Rv	-	-	MIC bound	>6.25 µg/mL
Cc1cn2c(C(=O)NCc3ccc(N4CCN(c5ccc(S(F)(F)(F)(F)F)cc5)CC4)cc3)c(C)nc2s1	resazurin	H37Rv	-	-	MIC90	<2 µM
CC1CCCCN1c1cncc(C(N)=O)n1	-	Ethionamide-resistant	-	-	MIC	500 µg/mL
NNC(=O)c1ccncc1	-	AZD5847-resistant 8.8	-	T460C Cys154Arg	MIC	0.06 µg/mL
NNC(=O)c1ccncc1	fluorescence / absorbance	H37Rv	-	-	EC90	1 µM
O=c1cc(-c2ccccc2)c2cc(Cl)ccc2o1	low oxygen	H37Rv	-	-	MIC90	>100 µg/mL
Cc1ccc2nc(-c3ccc(-n4on4-c4ccc(/C=C/c5ccc(-n6on6-c6ccc(-c7nc8ccc(C)cc8s7)cc6)cc5S(=O)(=O)O)c(S(=O)(=O)O)c4)cc3)sc2c1	BACTEC	H37Rv	6.25 µg/mL	-	inhibition	0%
Cc1ccn2c(C(=O)NCc3ccc(N4CCN(C(=O)OCC(C)C)CC4)c(F)c3)c(C)nc2c1	resazurin	H37Rv	-	-	MIC90	<2 µM
C[C@H](O)CNCCNCCC(c1ccccc1)c1ccccc1	-	-	-	-	MIC	25 µM
CCOC(=O)c1cc2c(Cl)c(Cl)c(Cl)c(Cl)n2n1	resazurin	H37Rv	6.25 µg/mL	-	inhibition	39%
O=c1oc2ccccc2cc1-c1cs/c(=N\N=C\c2cc([N+](=O)[O-])ccc2O)n1C1CCCCC1	-	H37Rv	-	-	MIC	>6.25 µg/mL
S=C(NCN1CCOCC1)c1cncc(-n2ccnc2)n1	-	Isoniazid-resistant	-	-	MIC	500 µg/mL
[Cl-].[Cl-].c1ccc([P+](Cc2ccc(C[P+](c3ccccc3)(c3ccccc3)c3ccccc3)cc2)(c2ccccc2)c2ccccc2)cc1	BACTEC	H37Rv	12.5 µg/mL	-	inhibition	74%
COc1ccc(/C=N/N=c2/scc(-c3cc4ccccc4oc3=O)n2C2CCCCC2)cc1OC	-	H37Rv	-	-	MIC	>6.25 µg/mL
CSc1nc(C(N)=O)cnc1CC(C)C	-	H37Rv	-	-	MIC	>12.5 µg/mL
NC(=O)c1cncc(-n2ccnc2)n1	-	H37Rv	-	-	MIC	1000 µg/mL
O=C([C@@H](O)CO)N1CC=C(c2c(F)cc(N3C[C@H](COc4ccon4)OC3=O)cc2F)CC1	-	AZD5847-resistant 8.10	-	G2270T	MIC	16 µg/mL
O=C(C1=Cc2ccccc2OC1)N1CCN(c2cccc(Cl)c2)CC1	resazurin	H37Rv	-	-	MIC bound	>6.25 µg/mL
O=C(O)c1cnc2ccccc2c1	-	H37Rv	6.25 µg/mL	-	inhibition	74%
O=C(/C=C/c1ccccc1)c1ccc(Cl)cc1O	-	-	-	-	EC50	<12.5 µg/mL
N#Cc1cncc(-n2cncn2)n1	-	H37Rv	-	-	MIC	250 µg/mL
CCCCc1ncc(C(N)=O)nc1SCC	-	H37Rv	-	-	MIC	>12.5 µg/mL
Cc1nc2scc(-c3ccco3)c2c(=O)n1NC(=O)c1ccc(Cl)cc1	-	CNCTC MY331/88	-	-	MIC	9 µM
Cc1cn2c(C(=O)NCc3ccc(S(F)(F)(F)(F)F)cc3)c(C)nc2s1	resazurin	H37Rv	-	-	MIC90	<2 µM
O=C(c1ccncc1)N1N=CCC1(O)C(F)(F)F	-	RGH103	-	-	MIC	48 µM
COc1ccc(C(=O)Nn2c(C)nc3scc(-c4ccco4)c3c2=O)cc1	-	CNCTC MY331/88	-	-	MIC	16 µM
O=C1c2ccccc2C(=O)c2c1oc1cc(O)c(Cl)cc21	resazurin	H37Rv	-	-	MIC bound	<6.25 µg/mL
CCSc1nc(C(N)=O)cnc1C(C)(C)C	-	H37Rv	-	-	MIC	>12.5 µg/mL
COC(=O)Cc1cc(C2CCCCC2)nc2c(C3CCCCC3)cccc12	-	H37Rv	6.25 µg/mL	-	inhibition	4%
CO[C@H]1/C=C/O[C@@]2(C)Oc3c(C)c(O)c4c(O)c(c(/C=N/N5CCN(C6CCCC6)CC5)c(O)c4c3C2=O)NC(=O)/C(C)=C\C=C\[C@H](C)[C@H](O)[C@@H](C)[C@@H](O)[C@@H](C)[C@H](OC(C)=O)[C@@H]1C	-	Erdman	-	-	MIC	0.06 µg/mL
NC(=S)c1cncc(-n2ccnc2)n1	-	H37Rv	-	-	MIC	250 µg/mL
CN(C)C(=S)SCN1C(=O)c2ccccc2C1=O	-	RMP-R	-	-	MIC	1.6 µg/mL
COC(=O)c1cnc2ccccc2c1C1C2CC3CC(C2)CC1C3	-	H37Rv	6.25 µg/mL	-	inhibition	11%
Cc1nc2scc(-c3ccco3)c2c(=O)n1NC(=O)C1CC1	-	CNCTC MY331/88	-	-	MIC	209 µM
Cc1cc(C2CCCC2)nc2c(C3CCCC3)cccc12	-	H37Rv	6.25 µg/mL	-	inhibition	100%
COc1ccc(N=C2C(=Nc3ccc(OC)cc3)N(S(=O)(=O)c3ccccc3)C(=S)N2c2ccccc2)cc1	BACTEC	H37Rv	-	-	MIC bound	>12.5 µg/mL
CCCCc1ncc(C(N)=S)nc1Sc1ccccc1	-	H37Rv	12.5 µg/mL	-	inhibition	91%
CCc1nc2ccc(Cl)cn2c1C(=O)NCc1ccc(N2CCSCC2)c(F)c1	resazurin	H37Rv	-	-	MIC90	<2 µM
C/C(=N\NC(=S)N1CCCC1)c1cnccn1	BACTEC	H37Rv	12.5 µg/mL	-	inhibition	16%
CC(C)c1ccc2c(c1)CC[C@H]1[C@](C)(CNCCNCCc3ccc(F)cc3)CCC[C@]21C	-	-	-	-	MIC	25 µM
NC[C@H]1O[C@H](O[C@H]2[C@H](O)[C@@H](O[C@H]3O[C@H](CO)[C@@H](O)[C@H](N)[C@H]3O)[C@H](N)C[C@@H]2N)[C@H](O)[C@@H](O)[C@@H]1O	-	TN4800 (W33)	-	-	MIC	>256 µg/mL
O=C(c1ccncc1)N1N=C(c2ccco2)CC1(O)C(F)(F)F	-	RGH103	-	-	MIC	19.23 µM
CC1COc2c(N3CCN(C)CC3)c(F)cc3c(=O)c(C(=O)O)cn1c23	broth dilution	INH resistant 912253	-	-	MIC	0.5 µg/mL
CCCCc1ncc(C(N)=O)nc1SCCC	-	H37Rv	-	-	MIC	>12.5 µg/mL
COc1ccc(N=Nc2c(-c3ccccc3)nn(C(=S)S)c2-c2ccccc2)cc1	BACTEC	H37Rv	-	-	MIC bound	≤128 µg/mL
O=C(/C=C/c1ccccc1)c1cccc(Br)c1O	-	-	-	-	EC50	<12.5 µg/mL
CN1CCN(c2cc3nc(-c4ccc(Cl)cc4)[nH]c3cc2F)CC1	resazurin	H37Rv	6.25 µg/mL	-	inhibition	53%
COc1ccc(/C=C/C(=O)c2ccccn2)cc1	-	-	12.5 µg/mL	-	inhibition	0%
CCCCCCCCCCCNCCNCCc1ccc(O)cc1	-	-	-	-	MIC	25 µM
Nc1ncccc1/C=C/C(=O)c1cc2ccccc2cc1O	-	H37Rv	12.5 µg/mL	-	inhibition	0%
O=c1oc2ccc(Br)cc2cc1-c1cs/c(=N/N=C/c2ccc(F)cc2)n1C1CCCCC1	-	H37Rv	6.25 µg/mL	-	inhibition	11%
CCCCSc1nc(C(N)=O)cnc1CCC	-	H37Rv	12.5 µg/mL	-	inhibition	<90%
O=C(O)c1cnc2ccccc2c1C1C2CC3CC(C2)CC1C3	-	H37Rv	-	-	MIC	>6.25 µg/mL
CCCc1ncc(C(N)=S)nc1SCC	-	H37Rv	-	-	MIC	>12.5 µg/mL
O=C1CC(c2ccccc2)Oc2cc(Br)ccc21	-	H37Rv	-	-	EC50	<12.5 µg/mL
O=c1oc2ccc(Br)cc2cc1-c1cs/c(=N/N=C/c2cc([N+](=O)[O-])ccc2O)n1C1CCCCC1	-	H37Rv	6.25 µg/mL	-	inhibition	0%
Cc1ccn2c(C(=O)NCc3ccc(N4CCS(=O)(=O)CC4)c(F)c3)c(C)nc2c1	resazurin	H37Rv	-	-	MIC90	<2 µM
CC(C)C1=C(O)C2=C(C(=O)C1=O)[C@@]1(C)CCCC(C)(C)C1C[C@H]2O	BACTEC	H37Rv	-	-	MIC	≥12.5 µg/mL
COc1ccc(CNCCNCCc2ccccc2F)cc1OC	-	-	-	-	MIC	25 µM
O=C1CC(c2ccc(O)cc2)Oc2ccccc21	-	H37Rv	-	-	EC50	>12.5 µg/mL
O=C(O)c1cc(C2CCCCC2)c2ccccc2n1	-	H37Rv	6.25 µg/mL	-	inhibition	9%
C/C=C/C(C1=C(O)c2ccccc2C(=O)C1=O)C1=C(O)c2ccccc2C(=O)C1=O	BACTEC	H37Rv	-	-	MIC	≥12.8 µg/mL
O=C1CC(c2ccc(O)c(O)c2)Oc2c1c(O)cc(O[C@@H]1O[C@H](CO)[C@@H](O)[C@H](O)[C@H]1O)c2C1C(=O)c2c(O)cc(O)cc2OC1c1ccc(O)cc1	-	H37Rv	-	-	EC50	>12.5 µg/mL
CC1=C(Cl)C[C@@H](/C(C)=C\Cl)O[C@@]1(O)C(Br)Br	BACTEC	H37Rv	-	-	MIC	≥12.5 µg/mL
OCNC(=S)c1cncc(-n2ccnc2)n1	-	H37Rv	-	-	MIC	250 µg/mL
COc1ccc(CCN2C(=O)C(=O)N(C3CCCCC3)C2=O)cc1OC	BACTEC	H37Rv	-	-	MIC bound	>12.5 µg/mL
Cc1ccn2c(C(=O)NCc3ccc(N4CCN(c5ccc(C(F)(F)F)cn5)CC4)c(F)c3)c(C)nc2c1	resazurin	H37Rv	-	-	MIC90	<2 µM
NC(=S)c1cncc(-n2cncn2)n1	-	Isoniazid-resistant	-	-	MIC	500 µg/mL
O=c1oc2ccccc2cc1-c1cs/c(=N/N=C/c2ccc(Br)cc2)n1C1CCCCC1	-	H37Rv	-	-	EC50	>6.25 µg/mL

A second listing of 11 rows from above:

{"structure": "CCOC(=O)c1cc2c(Cl)c(Cl)c(Cl)c(Cl)n2n1", "method": "resazurin", "strain": "H37Rv", "tested at": "6.25 µg/mL", "measure": "inhibition", "result": "39%"}
{"structure": "Nc1ncccc1/C=C/C(=O)c1cc2ccccc2cc1O", "strain": "H37Rv", "tested at": "12.5 µg/mL", "measure": "inhibition", "result": "0%"}
{"structure": "CCCc1ncc(C(N)=S)nc1SCC", "strain": "H37Rv", "measure": "MIC", "result": ">12.5 µg/mL"}
{"structure": "C[C@H](O)CNCCNCCC(c1ccccc1)c1ccccc1", "measure": "MIC", "result": "25 µM"}
{"structure": "COc1ccc(/C(N=Nc2ccccc2)=N/N=C(N)N)cc1", "method": "BACTEC", "strain": "H37Rv", "measure": "MIC bound", "result": ">12.5 µg/mL"}
{"structure": "CCCCc1ncc(C(N)=O)nc1SCCC", "strain": "H37Rv", "measure": "MIC", "result": ">12.5 µg/mL"}
{"structure": "NNC(=O)c1ccncc1", "strain": "AZD5847-resistant 8.8", "changes": "T460C Cys154Arg", "measure": "MIC", "result": "0.06 µg/mL"}
{"structure": "C1CCNC1.S=C(S)N1CCCC1", "strain": "EMB-R", "measure": "MIC", "result": "0.4 µg/mL"}
{"structure": "Cc1cn2c(C(=O)NCc3ccc(N4CCN(c5ccc(S(F)(F)(F)(F)F)cc5)CC4)cc3)c(C)nc2s1", "method": "resazurin", "strain": "H37Rv", "measure": "MIC90", "result": "<2 µM"}
{"structure": "CCCCSc1nc(C(N)=S)cnc1C(C)(C)C", "strain": "H37Rv", "tested at": "12.5 µg/mL", "measure": "inhibition", "result": "<90%"}
{"structure": "CCn1cc(C(=O)O)c(=O)c2cc(F)c(N3CCN(C)CC3)cc21", "strain": "55 isolates (RMP INH-R)", "measure": "MIC50", "result": "8 µg/mL"}

MIC bound: limit read from a one-dose screen. An empty or dashed field is not shown. Inhibition is in % at the dose shown (toxicity tests: loss of growth or viability). ECn is the concentration giving n% inhibition of infection, replication or growth. A number after MIC or MFC names an inhibition level or a share of isolates. Rows are shuffled and stem from different studies.